Tests used:
human paraoxonase = human paraoxonase (Homo sapiens, UniProt P27169); conditions: read-out: Km of human paraoxonase for paraoxon; reference [9]; cited from earlier work
OPH = OPH (Brevundimonas diminuta, UniProt P0A434); assay: OPH detection sensitivity and kinetics of OPH mediated hydrolysis (Example 7)

By UniProt entry, the sequences of proteins in these tests, tags left out. Where a name states a change or a piece, a line headed by the entry shows the natural chain unless it says otherwise.
UniProt P27169: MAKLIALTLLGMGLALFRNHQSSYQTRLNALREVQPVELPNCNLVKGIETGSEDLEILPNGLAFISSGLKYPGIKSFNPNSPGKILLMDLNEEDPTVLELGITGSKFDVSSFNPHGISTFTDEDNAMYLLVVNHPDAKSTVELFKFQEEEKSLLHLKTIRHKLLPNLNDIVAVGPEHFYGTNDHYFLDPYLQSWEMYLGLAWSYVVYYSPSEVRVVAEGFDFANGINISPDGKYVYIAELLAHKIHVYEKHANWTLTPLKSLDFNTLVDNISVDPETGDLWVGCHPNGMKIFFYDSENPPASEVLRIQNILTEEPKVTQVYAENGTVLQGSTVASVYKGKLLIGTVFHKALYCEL

CCOP(=O)(OCC)Oc1ccc([N+](=O)[O-])cc1
Km (human paraoxonase): 500 µM
catalytic rate (kcat) of OPH mediated hydrolysis (OPH): 670 s⁻¹
kcat for paraoxon relative to kcat for DEPFMU (OPH; OPH): more than 10 times

From patent publication US20100255521A1, “Fluorescent substrates for Detecting organophosphatase enzyme activity” (published 2010)
